Anti-infective test results gathered from many reports (values: NIAID ChemDB through PubChem).

Common to all: whole-cell or culture tests; species: Candida albicans; measure: MIC

Neighbouring rows are from separate reports.

CCCCCCCCCSc1cc(C(N)=S)ccn1 ; strain or isolate: 3a ; value: 200 µg/mL
CCC(=O)N1N=C(c2ccccc2)CC1c1nnc2c3ccccc3c(=O)[nH]n12 ; value: 100 µg/mL
CN1CCN(C2=C(Cl)C(=O)c3ccccc3C2=O)CC1 ; value: 25 µg/mL
CCCCCCC(Cn1ccnc1)c1c(Cl)cccc1Cl ; value: 10 µg/mL
O[C@](Cn1cncn1)(Cn1cnc(/C=C/c2ccc(OCC(F)(F)C(F)F)cc2)n1)c1ccc(F)cc1F ; strain or isolate: 3 isolates fluconazole-susceptible ; value: ≤0.25 µg/mL
CCCCCCCCSc1cc(C(N)=S)ccn1 ; strain or isolate: 176 ; value: 12.5 µg/mL
CCCCCOc1ccc(N(C)CCN(C)c2ccc(C(=O)N[C@H]3CCCNC(=O)C4C[C@H](N)CN4C(=O)C(C(C)O)NC(=O)C(CCc4ccc(O)cc4)NC(=O)C4C[C@@H](O)CN4C(=O)C(C(C)O)NC3=O)cc2)cc1 ; strain or isolate: ATCC CCH442 ; value: 1.56 µg/mL
Cc1ccc(/C=N/NC(=O)c2nnn(-c3ccnc4c(C(F)(F)F)cccc34)c2C)cc1 ; value: 25 µg/mL
CCCCCOc1ccc(-c2ccc(-c3ccc(C(=O)N[C@H]4CCCNC(=O)[C@@H]5C[C@H](N)CN5C(=O)[C@H]([C@@H](C)O)NC(=O)[C@H](CCc5ccc(O)cc5)NC(=O)[C@@H]5C[C@@H](O)CN5C(=O)[C@H]([C@@H](C)O)NC4=O)cc3)cc2)cc1 ; strain or isolate: ATCC 62376 ; value: 0.2 µg/mL
Nc1ccccc1NC1=C(O)c2ccccc2C(=O)C1=O ; value: 100 µg/mL
CCCCCOc1ccc(-c2ccc(-c3ccc(C(=O)N[C@H]4CCCNC(=O)C5C[C@H](NCC(=O)O)CN5C(=O)C(C(C)O)NC(=O)C(CCc5ccc(O)cc5)NC(=O)C5C[C@@H](O)CN5C(=O)C(C(C)O)NC4=O)cc3)cc2)cc1 ; strain or isolate: ATCC CCH442 ; value: 0.78 µg/mL
Cc1c(C(=O)N/N=C/c2ccc([N+](=O)[O-])cc2)nnn1-c1ccnc2c(C(F)(F)F)cccc12 ; value: 25 µg/mL
O=C1C(Cl)=C(Nc2ccc(S(=O)(=O)Nc3nncs3)cc2)C(=O)c2ccccc21 ; value: 50 µg/mL
CC(C)=CCC/C(C)=C/CN(C/C=C(\C)CCC=C(C)C)C(=N)N ; strain or isolate: ATCC 90028 ; value: 250 µg/mL
Cc1ccc(C2=NN(C=O)C(c3nnc4c5ccccc5c(=O)[nH]n34)C2)cc1 ; value: >200 µg/mL
N=C(N)c1ccc2nc(-c3ccc(-c4nc5ccc(C(=N)N)cc5[nH]4)[nH]3)[nH]c2c1 ; strain or isolate: Isolate CA1548 ; value: 0.39 µg/mL
CC(=O)N1N=C(c2ccccc2)CC1c1nnc2c3ccccc3c(=O)[nH]n12 ; value: 50 µg/mL
CCCC(C)C(Cn1ccnc1)c1ccc(Cl)cc1Cl ; value: 10 µg/mL
COc1ccc(/C=C2/SC(c3cccc(Br)c3)N(NC(=O)c3ccc(-c4ccccc4)cc3)C2=O)cc1 ; strain or isolate: MTCC 8184 ; value: 6.25 µg/mL
CCCCCCCCC(Cn1ccnc1)c1ccc(Cl)cc1Cl ; value: 10 µg/mL
Cc1ccc(C2=NN(c3ccccc3)C(c3nnc4c5ccccc5c(=O)[nH]n34)C2)cc1 ; value: >200 µg/mL
C[C@H]1[C@H](O)[C@@H](C)/C=C/C=C/C=C/C=C/C=C/C=C/C=C/[C@H](O[C@@H]2O[C@H](C)[C@@H](O)[C@H](N)[C@@H]2O)C[C@@H]2O[C@](O)(C[C@@H](O)C[C@@H](O)CC[C@H](O)[C@@H](O)C[C@@H](O)CC(=O)O[C@H]1C)C[C@H](O)[C@H]2C(=O)O ; strain or isolate: ATCC64545 ; value: 0.25 µg/mL
O=C1C(=O)c2ccccc2C(O)=C1Nc1cccc([N+](=O)[O-])c1 ; value: 100 µg/mL
CCCCCCCCOc1ccc(N2CCN(c3ccc(C(=O)N[C@H]4CCCNC(=O)[C@@H]5C[C@H](N)CN5C(=O)[C@H](CCN)NC(=O)[C@H](CCc5ccc(O)cc5)NC(=O)[C@@H]5CCCN5C(=O)[C@H]([C@@H](C)O)NC4=O)cc3)CC2)cc1 ; strain or isolate: ATCC 38247 ; value: 0.39 µg/mL
CCCCCOc1ccc(-c2ccc(-c3ccc(C(=O)N[C@H]4CCCNC(=O)C5C[C@H](N)CN5C(=O)C(CCCN(C)C)NC(=O)C(CCc5ccc(O)cc5)NC(=O)C5C[C@@H](O)CN5C(=O)C(C(C)O)NC4=O)cc3)cc2)cc1 ; strain or isolate: ATCC 10231 ; value: 0.39 µg/mL
CC(Cn1ccnc1)c1ccc(Cl)cc1 ; value: >100 µg/mL
O=C(NN1C(=O)/C(=C\c2ccccc2)SC1c1ccc(F)cc1)c1ccc(-c2ccccc2)cc1 ; strain or isolate: MTCC 8184 ; value: 6.25 µg/mL
CCCCCOc1ccc(-c2ccc(-c3ccc(C(=O)N[C@H]4CCCNC(=O)C5C[C@H](NC(=O)NCCN(C)C)CN5C(=O)C(C(C)O)NC(=O)C(CCc5ccc(O)cc5)NC(=O)C5C[C@@H](O)CN5C(=O)C(C(C)O)NC4=O)cc3)cc2)cc1 ; strain or isolate: ATCC CCH442 ; value: 0.39 µg/mL
Cc1c(C(=O)N/N=C/c2ccc(F)cc2)nnn1-c1ccnc2c(C(F)(F)F)cccc12 ; value: 25 µg/mL
CCCCCCCCOc1ccc(N2CCN(c3ccc(C(=O)N[C@H]4CCCNC(=O)C5C[C@H](N)CN5C(=O)C(C(C)O)NC(=O)C(Cc5ccc(N)cc5)NC(=O)C5CCCN5C(=O)C(C(C)O)NC4=O)cc3)CC2)cc1 ; strain or isolate: ATCC 62376 ; value: 0.2 µg/mL
CCCCCOc1ccc(-c2ccc(-c3ccc(C(=O)N[C@H]4CCCNC(=O)[C@@H]5C[C@H](NC(=O)OC(C)(C)C)CN5C(=O)[C@H]([C@@H](C)O)NC(=O)[C@H](CCc5ccc(O)cc5)NC(=O)[C@@H]5C[C@@H](O)CN5C(=O)[C@H]([C@@H](C)O)NC4=O)cc3)cc2)cc1 ; strain or isolate: ATCC 62376 ; value: 12.5 µg/mL
NC1=C(Cl)C(=O)c2ccccc2C1=O ; value: 6.3 µg/mL
OC(Cn1cncn1)(Cn1cncn1)c1ccc(F)cc1F ; strain or isolate: ATCC 90028 ; value: 0.03 µg/mL
O=C1NN2C(=NN3C2=C2CC(c4ccccc4)=NN2C3Nc2ccccc2)c2ccccc21 ; value: 50 µg/mL
O=C(O)c1cccc(NC2=C(Cl)C(=O)c3ccccc3C2=O)c1 ; value: 100 µg/mL
CC(C)=CCC/C(C)=C/CN(C)C(=N)N(C)C/C=C(\C)CCC=C(C)C ; strain or isolate: ATCC 90028 ; value: 250 µg/mL
CCCCCOc1ccc(-c2ccc(-c3ccc(C(=O)N[C@H]4CCCNC(=O)[C@@H]5C[C@H](N)CN5C(=O)[C@H](CCCN)NC(=O)C(CCc5ccc(O)cc5)NC(=O)[C@@H]5C[C@@H](O)CN5C(=O)[C@H]([C@@H](C)O)NC4=O)cc3)cc2)cc1 ; strain or isolate: ATCC 62376 ; value: 0.2 µg/mL
CN[C@@H]1[C@H](O[C@@H]2OC[C@@H](O)[C@H](O)[C@H]2O)[C@@H](O)[C@H](O[C@H]2c3cc(C)c(C(=O)NCC(=O)O)c(O)c3-c3c(cc4c(c3O)C(=O)c3cc(OC)cc(O)c3C4=O)[C@@H]2O)O[C@@H]1CO ; strain or isolate: IAM4888 ; value: 6.3 µg/mL
CCCCCOc1ccc(-c2ccc(-c3ccc(C(=O)N[C@H]4CCCNC(=O)C5C[C@H](O)N5C(=O)C(C(C)O)NC(=O)C(CCc5ccc(O)cc5)NC(=O)C5C[C@@H](O)CN5C(=O)C(C(C)O)NC4=O)cc3)cc2)cc1 ; strain or isolate: ATCC 62376 ; value: 0.39 µg/mL
Cc1c(C(=O)/C=C/c2ccc(F)cc2)nnn1-c1ccnc2c(C(F)(F)F)cccc12 ; value: 25 µg/mL
NC(=S)c1ccnc(SC2CCCCC2)c1 ; strain or isolate: 42 ; value: 100 µg/mL
COc1cc(/C=N/NC(=O)c2nnn(-c3ccnc4c(C(F)(F)F)cccc34)c2C)c([N+](=O)[O-])cc1OC ; value: 12.5 µg/mL
O=C(NN1C(=O)/C(=C\c2ccc(Cl)cc2)SC1c1cccc(Br)c1)c1ccc(-c2ccccc2)cc1 ; strain or isolate: MTCC 8184 ; value: 6.25 µg/mL
CC(=O)N1N=C(c2ccc(C)cc2)CC1c1nnc2c3ccccc3c(=O)[nH]n12 ; value: 100 µg/mL
c1ccc(-c2n[nH]c3c2CCCC3)cc1 ; strain or isolate: 264/624 ; value: 62.5 µg/mL
COc1ccc(/C=C2/SC(c3ccccc3)N(NC(=O)c3ccc(-c4ccccc4)cc3)C2=O)cc1 ; strain or isolate: MTCC 8184 ; value: 3.12 µg/mL
O=[N+]([O-])c1ccc(-c2n[nH]c3c2CCCC3)cc1 ; strain or isolate: 264/624 ; value: 500 µg/mL
CCCCCOc1ccc(-c2ccc(-c3ccc(C(=O)N[C@H]4CCCNC(=O)[C@@H]5C[C@H](N)CN5C(=O)[C@H](CCCN=C(N)N)NC(=O)C(CCc5ccc(O)cc5)NC(=O)[C@@H]5C[C@@H](O)CN5C(=O)[C@H]([C@@H](C)O)NC4=O)cc3)cc2)cc1 ; strain or isolate: ATCC 62376 ; value: 0.39 µg/mL
CCCCCC(Cn1ccnc1)c1ccc(Cl)cc1 ; value: 100 µg/mL
NS(=O)(=O)c1ccc(N2N=C(c3ccccc3)CC2c2nnc3c4ccccc4c(=O)[nH]n23)cc1 ; value: 100 µg/mL
CCCCCOc1ccc(-c2ccc(-c3ccc(C(=O)N[C@H]4CCCNC(=O)C5C[C@H](N)CN5C(=O)C(Cc5cnc[nH]5)NC(=O)C(CCc5ccc(O)cc5)NC(=O)C5C[C@@H](O)CN5C(=O)C(C(C)O)NC4=O)cc3)cc2)cc1 ; strain or isolate: ATCC 10231 ; value: 0.78 µg/mL
CCCCCOc1ccc(-c2ccc(-c3ccc(C(=O)N[C@H]4CCCNC(=O)[C@@H]5C[C@H](N)CN5C(=O)[C@H](CCC(=O)O)NC(=O)C(CCc5ccc(O)cc5)NC(=O)[C@@H]5C[C@@H](O)CN5C(=O)[C@H]([C@@H](C)O)NC4=O)cc3)cc2)cc1 ; strain or isolate: ATCC 62376 ; value: 0.39 µg/mL
CCC(C)n1ncn(-c2ccc(N3CCN(c4ccc(OC[C@H]5CO[C@](Cn6cncn6)(c6ccc(Cl)cc6Cl)O5)cc4)CC3)cc2)c1=O ; strain or isolate: E81022 ; value: 0.05 µg/mL
CCCCCC(Cn1ccnc1)c1c(Cl)cccc1Cl ; value: 10 µg/mL
O=C1C(Cl)=C(Nc2cccc([N+](=O)[O-])c2)C(=O)c2ccccc21 ; value: 100 µg/mL
CCCCCCC(Cn1ccnc1)c1ccc(Cl)cc1Cl ; value: 10 µg/mL
O=C(NN1C(=O)/C(=C\c2ccc(Cl)cc2)SC1c1ccccc1)c1ccc(-c2ccccc2)cc1 ; strain or isolate: MTCC 8184 ; value: 1.56 µg/mL
O=C1C(=O)c2ccccc2C(O)=C1Nc1ccc(C(=O)O)cc1 ; value: 100 µg/mL
CCCCCCSc1cc(C(N)=S)ccn1 ; strain or isolate: 176 ; value: 25 µg/mL
N=Nc1c(Cl)c(O)c2ccccc2c1O ; value: 100 µg/mL
Cc1ccc(/C=C/C(=O)c2nnn(-c3ccnc4c(C(F)(F)F)cccc34)c2C)cc1 ; value: 25 µg/mL

For reference, 4 entries again:

{"structure": "CC(C)=CCC/C(C)=C/CN(C)C(=N)N(C)C/C=C(\\C)CCC=C(C)C", "strain or isolate": "ATCC 90028", "value": "250 µg/mL"}
{"structure": "Cc1c(C(=O)N/N=C/c2ccc([N+](=O)[O-])cc2)nnn1-c1ccnc2c(C(F)(F)F)cccc12", "value": "25 µg/mL"}
{"structure": "CCCCCOc1ccc(-c2ccc(-c3ccc(C(=O)N[C@H]4CCCNC(=O)C5C[C@H](NC(=O)NCCN(C)C)CN5C(=O)C(C(C)O)NC(=O)C(CCc5ccc(O)cc5)NC(=O)C5C[C@@H](O)CN5C(=O)C(C(C)O)NC4=O)cc3)cc2)cc1", "strain or isolate": "ATCC CCH442", "value": "0.39 µg/mL"}
{"structure": "NC1=C(Cl)C(=O)c2ccccc2C1=O", "value": "6.3 µg/mL"}